Anti-infective test results gathered from many reports (values: NIAID ChemDB through PubChem).

Shared fields: target-level tests; species: HIV-1; target: Protease; read-out: Ki

Rows are shuffled and stem from different studies. An empty or dashed field is not shown.

smiles	strain	changes	read by	setting	result
CC(C)(CCCCNC(=O)NC(C)(C)C)CN(C[C@@H](O)[C@H](Cc1ccccc1)NC(=O)O[C@H]1CO[C@H]2OCC[C@H]21)S(=O)(=O)c1ccc2c(c1)OCO2			fluorescence		<0.001 µM
C=C(C)CN(C[C@@H](O)[C@H](Cc1ccccc1)NC(=O)OC(C)(C)C)S(=O)(=O)c1ccc(F)cc1			HPLC		0.06 µM
CC(C)CN(C[C@@H](O)[C@H](Cc1ccccc1)NC(=O)O[C@H]1CO[C@H]2OCC[C@H]21)S(=O)(=O)c1ccc2c(c1)/C(=C/N(C)C)C(=O)N2		L10 L24 M36 I54 L63 A71 V82 I84	substrate cleavage		<0.0001 µM
Cc1cc2c(cc1C)N=Cc1c(ccc3ccccc13)OCCOc1c3cc(C(C)(C)C)cc1Cc1cc(C(C)(C)C)cc(c1O)Cc1cc(C(C)(C)C)cc(c1OCCOc1ccc4ccccc4c1C=N2)Cc1cc(C(C)(C)C)cc(c1O)C3			FRET / fluorescence		28.8 µM
COC(=O)NCCC(C)(C)CN(C[C@@H](O)[C@H](Cc1ccccc1)NC(=O)O[C@H]1CO[C@H]2OCC[C@H]21)S(=O)(=O)c1ccc(N)cc1			fluorescence		<0.001 µM
COc1ccc(S(=O)(=O)N(CC2CCCC2)C[C@@H](O)[C@H](Cc2ccccc2)NC(=O)O[C@@H]2CCOC2)cc1			HPLC		<0.0001 µM
O=S1(=O)N(Cc2ccccc2)C[C@H](O)[C@@H](O)CN1Cc1ccccc1Cc1ccccc1			fluorescence		>20 µM
CCOC(=O)/C=C/[C@@H]1[C@@H](O)[C@@H](Cc2ccccc2)N(Cc2ccc(OC)cc2)C(=O)N1Cc1ccc(OC)cc1	IIIB				>12.5 µM
CC(C)c1ccccc1Sc1c(O)cc(-c2ccc(OCc3cccnc3)cc2)oc1=O			HPLC	pH 4.7	0.029 µM
CC(=O)Nc1ccc(S(=O)(=O)N(CC(C)C)C[C@@H](O)[C@H](Cc2ccccc2)NC(=O)O[C@H]2CCOC2)cc1			HPLC		0.02 µM
CC(C)(C)c1cc2c(O)c(c1)Cc1cc(C(C)(C)C)cc3c1OCCOc1ccc4ccccc4c1C=Nc1ccccc1N=Cc1c(ccc4ccccc14)OCCOc1c(cc(C(C)(C)C)cc1Cc1cc(C(C)(C)C)cc(c1O)C3)C2			FRET / fluorescence		65 µM
Cc1cc(C)cc(C[C@@H]2[C@H](O)[C@@H](O)[C@@H](Cc3ccccc3)N(Cc3ccc4[nH]nc(N)c4c3)C(=O)N2Cc2ccccc2)c1			HPLC		0.0002 µM
COc1ccc2c(c1)OCC/C=C\CN(C[C@@H](O)[C@H](Cc1ccccc1)NC(=O)O[C@H]1CO[C@H]3OCC[C@H]31)S2(=O)=O			substrate cleavage		0.000077 µM
CC(C)CN(C[C@@H](O)[C@H](Cc1ccccc1)NC(=O)O[C@H]1CO[C@H]2OCC[C@H]21)S(=O)(=O)c1ccc2[nH]c(O)c(C=NCc3nc4ccccc4[nH]3)c2c1	HXB2		substrate cleavage		<0.0001 µM
CC(C)(CCCNC(=O)CO)CN(C[C@@H](O)[C@H](Cc1ccccc1)NC(=O)O[C@H]1CO[C@H]2OCC[C@H]21)S(=O)(=O)c1ccc2c(c1)OCO2			fluorescence		<0.001 µM
CC(C)C(O)[C@@H]1CC(NC(=O)[C@H](OCc2ccccc2)[C@H](O)[C@@H](O)[C@@H](OCc2ccccc2)C(=O)N[C@@H]2CO[C@H](C(O)C(C)C)C2)CO1			fluorescence		1.59 µM
CC(C)(CCCCNC(=S)NC(C)(C)C)CN(C[C@@H](O)[C@H](Cc1ccccc1)NC(=O)O[C@H]1CO[C@H]2OCC[C@H]21)S(=O)(=O)c1ccc2c(c1)OCO2			fluorescence		<0.001 µM
CC(O)[C@@H]1CC(NC(=O)[C@H](OCc2ccccc2)[C@H](O)[C@@H](O)[C@@H](OCc2ccccc2)C(=O)N[C@H]2c3ccccc3C[C@H]2O)CO1			fluorescence		0.00054 µM
CC(C)(CCCCCN)CN(C[C@@H](O)[C@H](Cc1ccccc1)NC(=O)O[C@H]1CO[C@H]2OCC[C@H]21)S(=O)(=O)c1ccc2c(c1)OCO2			fluorescence		<0.001 µM
CC(C)C(O)[C@@H]1CC(NC(=O)[C@H](OCc2ccccc2)[C@H](O)[C@@H](O)[C@@H](OCc2ccccc2)C(=O)N[C@H]2c3ccccc3C[C@H]2O)CO1			fluorescence		0.0016 µM
CC(C)(CCCNS(=O)(=O)c1ccc(F)cc1)CN(C[C@@H](O)[C@H](Cc1ccccc1)NC(=O)O[C@H]1CO[C@H]2OCC[C@H]21)S(=O)(=O)c1ccc2c(c1)OCO2			fluorescence		<0.001 µM
O=C(N[C@@H](Cc1ccccc1)[C@H](O)CN1CCCCC12C(=O)Nc1ccccc12)O[C@H]1CO[C@H]2OCC[C@H]21			HPLC		>1000 µM
COc1ccc2c(c1)OCCCC/C=C\CC(C)CN(C[C@@H](O)[C@H](Cc1ccccc1)NC(=O)O[C@H]1CO[C@H]3OCC[C@H]31)S2(=O)=O			substrate cleavage		0.058 µM
CC(C)CCNC(=O)[C@H](C(C)C)[C@@H](O)[C@H](O)C(=O)[C@H](CC(C)C)NC(=O)[C@H](Cc1cnc[nH]1)NC(=O)COc1ccccc1					0.35 µM
COc1ccc(S(=O)(=O)N(CC(C)C)C[C@@H](O)[C@@H]2Cc3ccc(cc3)OCCCCCCCc3c(O)cccc3C(=O)N2)cc1			fluorescence		0.004 µM
CC(=O)Nc1ccc(S(=O)(=O)N(C)C[C@@H](O)[C@H](Cc2ccccc2)NC(=O)OC(C)(C)C)cc1Cl			HPLC		>5 µM
COc1ccc(OC(=O)NCCCCC(C)(C)CN(C[C@@H](O)[C@H](Cc2ccccc2)NC(=O)O[C@H]2CO[C@H]3OCC[C@H]32)S(=O)(=O)c2ccc3c(c2)OCO3)cc1			fluorescence		<0.001 µM
COc1ccc(S(=O)(=O)N(CC(C)C)C[C@@H](O)[C@@H]2Cc3ccc(cc3)OCCCC/C=C/CCc3c(O)cccc3C(=O)N2)cc1			fluorescence		0.004 µM
CC[C@H](C)[C@@H](NC(=O)[C@@H](C[C@H](O)[C@H](CC(C)C)NC(=O)[C@H](Cc1cnc[nH]1)NC(=O)[C@H](Cc1ccccc1)NC(=O)[C@@H]1CCCN1C(=O)[C@@H](N)Cc1cnc[nH]1)C(C)C)C(=O)N[C@@H](Cc1cnc[nH]1)C(=O)O			HPLC	pH 4.7	0.005 µM
O=S1(=O)N(Cc2ccccc2/C=C/c2ccccc2)C[C@H](O)[C@@H](O)CN1Cc1ccccc1-c1ccccc1			fluorescence		4.9 µM
CC(C)(CCCCN)CN(C[C@@H](O)[C@H](Cc1ccccc1)NC(=O)O[C@H]1CO[C@H]2OCC[C@H]21)S(=O)(=O)c1cccc2c1OCCO2			fluorescence		<0.001 µM
O=C(N[C@@H](Cc1ccccc1)[C@H](O)CN1CCCCCC12C(=O)Nc1ccccc12)O[C@H]1CO[C@H]2OCC[C@H]21			HPLC		>1000 µM
O=S1(=O)N(Cc2ccccc2/C=C/c2ccccc2)C[C@H](O)[C@@H](O)CN1Cc1ccccc1CCc1ccccc1			fluorescence		>20 µM
CC(C)CC(=O)NCCCC(C)(C)CN(C[C@@H](O)[C@H](Cc1ccccc1)NC(=O)O[C@H]1CO[C@H]2OCC[C@H]21)S(=O)(=O)c1ccc2c(c1)OCO2			fluorescence		<0.001 µM
COc1ccc(CN[C@H]2C(=O)N[C@@H](Cc3ccccc3)[C@H]2O)cc1	IIIB				>12.5 µM
C/C(CCC(C)(C)CN(C[C@@H](O)[C@H](Cc1ccccc1)NC(=O)O[C@H]1CO[C@H]2OCC[C@H]21)S(=O)(=O)c1cccc2c1OCO2)=N/O			fluorescence		<0.001 µM
CCCCOC(=O)[C@H]1[C@H](O)[C@H](Cc2ccccc2)NC(=O)N1Cc1ccc(OC)cc1	IIIB				>12.5 µM
CC(C)(CCCCNS(C)(=O)=O)CN(C[C@@H](O)[C@H](Cc1ccccc1)NC(=O)O[C@@H]1CO[C@@H]2OCC[C@@H]21)S(=O)(=O)c1ccc(N)cc1			fluorescence		<0.001 µM
CC(C)C[C@H](NC(=O)[C@@H]1CC(=O)NC/C=C/CCCOC(=O)N[C@@H](C(C)C)C(=O)N1)[C@@H](O)C[C@@H](C)C(=O)N[C@H](C(=O)NOCc1ccccc1)C(C)C					0.014 µM
CC(C)(C)OC(=O)N[C@H](Cc1ccccc1)/C(O)=C(\C#N)c1c(F)c(F)c(F)c(F)c1F			HPLC		1.49 µM
CNc1cccc(S(=O)(=O)N(C[C@@H](O)[C@H](Cc2ccccc2)NC(=O)O[C@H]2CO[C@H]3OCC[C@H]32)CC(C)(C)CCC2(C)OCCO2)c1			fluorescence		<0.001 µM
COC(=O)N1C2C3C4N(C(=O)OC)C5C(C1C5(CO)[C@H]3c1ccccc1)[C@@H](c1ccccc1)C24CO					0.075 µM
CC(C)(CCCCNS(=O)(=O)c1ccccc1)CN(C[C@@H](O)[C@H](Cc1ccccc1)NC(=O)O[C@H]1CO[C@H]2OCC[C@H]21)S(=O)(=O)c1ccc2c(c1)OCO2			fluorescence		<0.001 µM
COc1ccc2c(c1)OCCCCCN(C[C@@H](O)[C@H](Cc1ccccc1)NC(=O)O[C@H]1CO[C@H]3OCC[C@H]31)S2(=O)=O			substrate cleavage		0.00015 µM
CCC(CCC#N)CN(C[C@@H](O)[C@H](Cc1ccccc1)NC(=O)OC(C)(C)C)S(=O)(=O)c1ccc(OC)cc1			fluorescence		<0.001 µM
CCC(=O)O[C@@H](C/C=C(\C)C(=O)OC)C[C@H](OC(C)=O)[C@H](CCCOC(=O)CC(C)C)OC(=O)CC(C)C			fluorescence		29.9 µM
CN(C)C(=O)NCCC(C)(C)CN(C[C@@H](O)[C@H](Cc1ccccc1)NC(=O)O[C@H]1CO[C@H]2OCC[C@H]21)S(=O)(=O)c1ccc(N)cc1			fluorescence		<0.001 µM
CCC(C)[C@H](NC(=O)[C@H](C(C)C)[C@@H](O)[C@H](O)C(=O)[C@H](CC(C)C)NC(=O)[C@H](Cc1cnc[nH]1)NC(=O)[C@H](Cc1ccccc1)NC(=O)OC(C)(C)C)C(=O)NCc1ccccn1					0.028 µM
COc1ccc(S(=O)(=O)N(C[C@@H](O)[C@H](Cc2ccccc2)NC(=O)O[C@H]2CO[C@H]3OCC[C@H]32)CC(C)(C)CCCN(C)C)cc1			fluorescence		<0.001 µM
O=S1(=O)N(Cc2ccccc2)C[C@H](O)[C@@H](O)CN1Cc1ccccc1CCc1ccccc1			fluorescence		>20 µM
CC(C)(CCOC(=O)NCCO)CN(C[C@@H](O)[C@H](Cc1ccccc1)NC(=O)O[C@H]1CO[C@H]2OCC[C@H]21)S(=O)(=O)c1ccc2c(c1)OCO2			fluorescence		<0.001 µM
CCOC(=O)/C=C/[C@@H]1[C@@H](O)[C@@H](Cc2ccccc2)NC(=O)CN1Cc1ccc(OC)cc1	IIIB				0.616 µM
COC(=O)[C@@H](NC(=O)[C@@H](NC(=O)[C@@H]1CCC[C@H]1[C@@H](O)[C@H](Cc1ccccc1)NC(=O)[C@H](C)NC(=O)[C@H](C)NC(=O)[C@@H](N)CO)C(C)C)C(C)C			HPLC		28 µM
CCOC[C@@H]1CC(NC(=O)[C@H](OCc2ccccc2)[C@H](O)[C@@H](O)[C@@H](OCc2ccccc2)C(=O)N[C@H]2c3ccccc3C[C@H]2O)CO1			fluorescence		0.003 µM
CN(C)C(=O)NCCCC(C)(C)CN(C[C@@H](O)[C@H](Cc1ccccc1)NC(=O)O[C@H]1CO[C@H]2OCC[C@H]21)S(=O)(=O)c1cccc2c1OCO2			fluorescence		<0.001 µM
O=C(N[C@@H](Cc1ccccc1)[C@H](O)CN(CC1CCCO1)S(=O)(=O)c1ccc(F)cc1)O[C@H]1CCOC1			HPLC		0.014 µM
COc1cccc(S(=O)(=O)N(C[C@@H](O)[C@H](Cc2ccccc2)NC(=O)O[C@H]2CO[C@H]3OCC[C@H]32)CC(C)(C)CCNC(=O)OC(C)C)c1			fluorescence		<0.001 µM
CCC(=O)O[C@H](C/C=C(\C)C(=O)OC)C[C@H](OC(C)=O)[C@@H](CCCOC(=O)CC(C)C)OC(=O)CC(C)C			fluorescence		5 µM

Again, the opening 4 rows:

| smiles | strain | changes | read by | setting | result |
|---|---|---|---|---|---|
| CC(C)(CCCCNC(=O)NC(C)(C)C)CN(C[C@@H](O)[C@H](Cc1ccccc1)NC(=O)O[C@H]1CO[C@H]2OCC[C@H]21)S(=O)(=O)c1ccc2c(c1)OCO2 |  |  | fluorescence |  | <0.001 µM |
| C=C(C)CN(C[C@@H](O)[C@H](Cc1ccccc1)NC(=O)OC(C)(C)C)S(=O)(=O)c1ccc(F)cc1 |  |  | HPLC |  | 0.06 µM |
| CC(C)CN(C[C@@H](O)[C@H](Cc1ccccc1)NC(=O)O[C@H]1CO[C@H]2OCC[C@H]21)S(=O)(=O)c1ccc2c(c1)/C(=C/N(C)C)C(=O)N2 |  | L10 L24 M36 I54 L63 A71 V82 I84 | substrate cleavage |  | <0.0001 µM |
| Cc1cc2c(cc1C)N=Cc1c(ccc3ccccc13)OCCOc1c3cc(C(C)(C)C)cc1Cc1cc(C(C)(C)C)cc(c1O)Cc1cc(C(C)(C)C)cc(c1OCCOc1ccc4ccccc4c1C=N2)Cc1cc(C(C)(C)C)cc(c1O)C3 |  |  | FRET / fluorescence |  | 28.8 µM |